Measured values as given in patent US20090036437A1, “PHARMACEUTICAL COMPOSITION COMPRISING PHENOXAZINIUM COMPOUND AS AN ACTIVE INGREDIENT” (priority 2005, published 2009).

Legend:
Format in all cases: cell-based
[1] = test system: Plasmodium Falciparum K1 strain; assay: in vitro growth-inhibiting screening assay, chloroquine-resistant falciparum malaria; conditions: EC50 rat L6 cell / EC50 P. falciparum K1
Method: Plasmodium Falciparum K1 strain was used as a chloroquine-resistant protozoa of falciparum malaria. RMI-1640 sterilized by filtration was supplemented with human serum of a final concentration of 5% to be used as a culture medium. The malaria protozoa were cultured under O2 concentration of 3%, CO2 concentration of 4%, N2 concentration of 93% at 37° C.
A test sample was prepared by dissolving the test compounds according to the present invention and a positive control drug (chloroquine) in DMSO to a predetermined concentration. The erythrocytes infected with the cultured malaria protozoa were collected by centrifugation and so diluted with non-infected erythrocytes to have an initial infection ratio of 0.15%. The hematocrit value was then 2.5%. Culture mixture of the above malaria-infection culture medium (200 μL) was placed into each well of a 96-well culture plate, and the test sample comprising the predetermined amount of the test compound, and DMSO without the test compound were added to the wells in duplicate.
After culture for 48 hours at 37° C., hypoxanthine labeled with radioactive tritium (^3H) of 0.5 μCi was added to each well. After the culture in the same conditions for further 24 hours, the sample was taken on a glass fiber filter and washed with distilled water. Intensity of radiation was measured by means of plate liquid scintillation counter (Wallac Co.), and an infection ratio of the protozoa of malaria was calculated with respect to a group treated with the test sample and the control. A growth-inhibiting ratio was then calculated from the resulting infection ratio in accordance with the following equation to determine 50% growth-inhibiting concentration (EC50).
Growth-inhibiting ratio (%)=[1−(b−a)/(c−a)]×100 • a: Initial infection ratio; • b: Infection ratio of the test sample group; and • c: Infection ratio of the control group. In vitro Growth-Inhibiting Assay of Rat L6 Cells
Anti-malaria effect of the samples was assessed by their EC50 values for the chloroquine-resistant protozoa of falciparum malaria and the rat L6 cell. A chemotherapy coefficient, which is used as an index for the selective toxicity for the chloroquine-resistant protozoa of falciparum malaria was calculated by the following equation, and the pharmaceutical effect was determined.
Chemotherapy coefficient=(EC50 value of the test sample for rat L6 cell)/(EC50 value of the test sample for the chloroquine-resistant protozoa of falciparum malaria)

[2] = test system: Trypanosoma brucei rhodensiense (STIB 900 strain); assay: in vitro growth-inhibiting screening assay, protozoa of African trypanosomiasis; conditions: EC50 rat L6 cell / EC50 protozoa of African trypanosomiasis
Method: This test was done using a trypomastigote of the protozoa of Trypanosoma brucei rhodensiense (STIB 900 strain) ranging in blood stream. MEM medium sterilized by filtration was supplemented with 25 mM of N-2-hydroxyethylpiperazine-2-ethanesulfonic acid (HEPES), 1 g/L of glucose, 1% of MEM non-essential amino acids, 0.2 mM of 2-mercaptoethanol, 2 mM of sodium pyruvate, 1 mM of hypoxathine and 15% of heat-treated horse serum. The protozoa were cultured under CO2 concentration of 5%, at 37° C.
A test sample was prepared by dissolving the test compounds according to the present invention and a positive control drug (Melarsoprol) in DMSO to a predetermined concentration. Culture medium containing the protozoa of 8×10^3, and the test sample comprising the predetermined amount of the test compound, and DMSO without the test compound were added into each well of 96-well culture plate to a final volume of 100 μL in duplicate.
(§1) After incubation of the culture plate for 72 hours in an incubator, a growth-inhibiting activity was assayed as follows. Alamar Blue aqueous solution (10 μL) was added to each well followed by a further two-hour culture. The culture plate was then attached to a fluorescence micro titer plate reader (Spectramax Gemeni XS; U.S. Molecular Device Co.), the intensity of fluorescence at 588 nm was detected with excitation wave length of 536 nm to calculate an infection ratio of the protozoa with respect to a group treated with the test sample and a control group. A growth-inhibiting ratio was then calculated from the resulting infection ratio in accordance with the following equation to determine 50% growth-inhibiting concentration (EC50).
(§2) Growth-inhibiting ratio (%)=[1−(b−a)/(c−a)]×100 • a: Initial infection ratio; • b: Infection ratio of the test sample group; and • c: Infection ratio of the control group.
A selective toxicity coefficient, which is used as an index for the selective toxicity for the protozoa of African trypanosomiasis, was calculated by the following equation, and the pharmaceutical effect was determined. […]

[3] = test system: Leishmania donovani (MHOM/ET/67/L82 strain); assay: in vitro growth-inhibiting screening assay, protozoa of Leishmaniasis; conditions: EC50 rat L6 cell / EC50 protozoa of Leishmaniasis
Method: This test was done using the protozoa of Leishmania donovani (MHOM/ET/67/L82 strain). The protozoa were subcultured using Syrian Golden hamster and an amastigote was obtained therefrom. The amastigotes were cultured in SM medium supplemented with 10% of heat-treated fetal calf serum (pH 5.4) under CO2 concentration of 5%, at 37° C.
A test sample was prepared by dissolving the test compounds according to the present invention and a positive control drug (Miltefosine) in DMSO to a predetermined concentration. Culture medium containing a predetermined number of the protozoa was added into each well of a 96-well culture plate, and the concentration of the amastigotes was measured by means of CASY cell analysis system (Dermany, Scharfe Co.). Test sample comprising the predetermined amount of the test compound, and DMSO without the test compound were added to the wells in duplicate.
as §1, with “device” for “Device”, “trated” for “treated”
as §2
A selective toxicity coefficient, which is used as an index for the selective toxicity for the protozoa of Leishmaniasis, was calculated by the following equation, and the pharmaceutical effect was determined. […]

Structure (SMILES)	Selective toxicity [1]	Selective toxicity [2]	Selective toxicity [3]
CCN(CC)c1ccc2nc3ccc(=[N+](CC)CC)cc-3oc2c1.[Cl-] [A-1 (>95% purity)]	9600		
CN(C)c1ccc2nc3ccc(=[N+](C)C)cc-3oc2c1.CN(C)c1ccc2nc3ccc(=[N+](C)C)cc-3oc2c1.[Cl-].[Cl-].[Cl][Zn][Cl] [Compound A-3]	570	16	10
CCCC[N+](CCCC)=c1ccc2nc3ccc(N(CC)CC)cc3oc-2c1.[Cl-] [Compound A-6]	350	12	36
CCCC[N+](CCCC)=c1ccc2nc3ccc(N(C)C)cc3oc-2c1.[O-][Cl+3]([O-])([O-])[O-] [Compound A-7]	270	3.6	68
CN(C)c1ccc2nc3ccc(N4CCNCC4)cc3[o+]c2c1.Cl.[Cl-] [Compound A-11, 3-dimethylamino-7-(1-piperazino) phenoxazinium chloride mono-hydrochloride salt]	2000		
CN1CCN(c2cc(O)c3nc4ccc(=[N+](C)C)cc-4oc3c2)CC1.Cl.[Cl-] [Compound A-14]	440		
C[N+](C)=c1ccc2nc3c(O)cc(N4CCN(CCO)CC4)cc3oc-2c1.Cl.[Cl-] [Compound A-15]	390		
